Results of unrelated studies side by side (data: NIAID ChemDB).

Shared fields: target-level tests; agent: HIV-1; protein: Protease; read-out: inhibition

Rows are shuffled and stem from different studies. An empty or dashed field is not shown. Percent inhibition refers to the dose given; in toxicity tests it is the harm to the cells.

SMILES	dose	method	value
CC(C(=O)O)C(C)C(=O)N[C@@H](Cc1ccccc1)[C@H](O)C(=O)N1CSC(C)(C)[C@H]1C(=O)NC(C)(C)C	77.5 µM	-	0.05%
COc1ccc(-c2oc3cc(O)cc(O)c3c(=O)c2O)cc1	50 µg/mL	fluorescence	20%
CC[C@H](C)/C=C(C)/C=C/C(=O)Cc1cc(O)c(C)c(O)c1C=O	100 µg/mL	-	0%
CC(C)[C@H](NC(=O)OCc1ccccn1)C(=O)NC(Cc1ccccc1)C(O)C(F)(F)C(N)Cc1ccccc1	0.1 µM	fluorescence	47%
O=C(N[C@H]1c2ccccc2C[C@H]1O)[C@H](OCc1ccccc1)[C@H](O)[C@@H](O)[C@@H](OCc1ccccc1)C(=O)N[C@H]1c2ccccc2C[C@H]1O	10 µM	absorbance	0%
C[C@@H]1O[C@@H](Oc2c(-c3cc(O)c(O)c(O)c3)oc3cc(O)cc(O)c3c2=O)[C@H](O)[C@H](O)[C@H]1O	50 µg/mL	fluorescence	50.4%
Cc1cc(=O)n2[nH]c(NCc3cccs3)nc2n1	150 µM	-	36.41%
Cc1c(O)cccc1C(=O)N[C@@H](Cc1ccccc1)[C@H](O)C(=O)N1CSC(C)(C)[C@H]1C(=O)NC1C2CC3CC(C2)CC1C3	0.05 µM	HPLC	5.5%
CC(C)[C@H](NC(=O)N(C)Cc1ccccn1)C(=O)N[C@@H](Cc1ccccc1)[C@H](O)[C@@H](O)[C@H](Cc1ccccc1)NC(=O)[C@@H](NC(=O)N(C)Cc1ccccn1)C(C)C	0.001 µM	fluorescence	68%
Cc1cccc(C)c1OCC(=O)N[C@@H](Cc1ccccc1)[C@H](O)C(=O)N1CSC(C)(C)[C@H]1C(=O)NC1CCc2ccccc21	0.05 µM	HPLC	64.5%
CC1=CC(C)(C)Nc2ccc(OC(=O)c3ccco3)cc21	150 µM	-	30.33%
CC(=O)N[C@@H](Cc1ccccc1)C(O)[C@H](Cc1ccccc1)NC(C)=O	50 µM	fluorescence	68%
Cc1cccc(C)c1OCC(=O)N[C@@H](Cc1ccccc1)[C@H](O)C(=O)N1CSC(C)(C)[C@H]1C(=O)NN(C)c1ccccc1	0.05 µM	HPLC	15.3%
Cc1c(O)cccc1NC(=O)[C@H](OCc1ccccc1)[C@H](O)[C@@H](O)[C@@H](OCc1ccccc1)C(=O)Nc1cccc(O)c1C	10 µM	absorbance	0%
COC(=O)c1ccc(CNC(=O)[C@H]2N(C(=O)[C@@H](O)[C@H](Cc3ccccc3)NC(=O)COc3c(C)cccc3C)CSC2(C)C)cc1	0.05 µM	HPLC	28.6%
COc1ccc(C2Oc3cc(O)cc(O)c3C(=O)C2O)cc1O	50 µg/mL	fluorescence	45.6%
CC(C)[C@H](NC(=O)N(C)Cc1ccccn1)C(=O)N[C@@H](Cc1ccccc1)[C@@H](O)[C@H](O)[C@H](Cc1ccccc1)NC(=O)[C@@H](NC(=O)N(C)Cc1ccccn1)C(C)C	0.001 µM	fluorescence	45%
O=C1O[C@H]2[C@@H]3OC(=O)c4cc(O)c(O)c(O)c4-c4c(cc(O)c(O)c4O)C(=O)OC[C@H]2O[C@@H](OC(=O)c2cc(O)c(O)c(O)c2)[C@@H]3OC(=O)c2cc(O)c(O)c3c2[C@@H]2C1=CC(=O)[C@](O)(O3)C2(O)O	50 µg/mL	HPLC	68.2%
Cc1ccccc1-n1nnc(C(c2ccccc2)(c2ccccc2)n2ccnc2)c1C	10 µg/mL	substrate cleavage / fluorescence	22.1%
O=c1c(O)c(-c2ccc(O)c(O)c2)oc2c(O[C@@H]3O[C@H](CO)[C@@H](O)[C@H](O)[C@H]3O)c(O)cc(O)c12	50 µg/mL	HPLC	26.5%
CC(C)[C@H](NC(=O)c1ccccn1)C(=O)N[C@@H](Cc1ccccc1)[C@@H](O)[C@H](O)[C@H](Cc1ccccc1)NC(=O)[C@@H](NC(=O)c1ccccn1)C(C)C	0.1 µM	fluorescence	78%
O=C1OC2[C@H]3COC(=O)c4cc(O)c(O)c5c4C4C(=CC(=O)[C@@](O)(O5)C4(O)O)C(=O)O[C@@H]2[C@@H](OC(=O)c2cc(O)c(O)c4c2C2C1=CC(=O)[C@](O)(O4)C2(O)O)[C@H](OC(=O)c1cc(O)c(O)c(O)c1)O3	50 µg/mL	HPLC	0%
NC(=O)C[C@H](NC(=O)OCc1ccccc1)C(=O)NC(Cc1ccccc1)C(O)C(Cc1ccccc1)NC(=O)[C@H](CC(N)=O)NC(=O)OCc1ccccc1	0.91 µM	fluorescence	51%
CCOc1ccccc1CNc1nc2nc3c(c(=O)n2[nH]1)CCC3	150 µM	-	24.56%
CC(C)[C@H](NC(=O)OCc1ccccc1)C(=O)N[C@@H](Cc1ccccc1)[C@H](O)[C@H](Cc1ccccc1)NC(=O)[C@@H](NC(=O)OCc1ccccn1)C(C)C	0.005 µM	fluorescence	63%
O=c1cc(-c2ccc(O)c(O)c2)oc2cc(O)cc(O)c12	50 µg/mL	fluorescence	67.8%
COC(=O)[C@H](Cc1ccccc1)NC(=O)[C@H](OCc1ccccc1)[C@H](O)[C@@H](O)[C@@H](OCc1ccccc1)C(=O)N[C@@H](Cc1ccccc1)C(=O)OC	10 µM	absorbance	0%
CC1=CC(C)(C)Nc2ccc(OS(=O)(=O)c3ccc(C)cc3)cc21	150 µM	-	32.29%
O=C(NCCO)[C@H](OCc1ccccc1)[C@H](O)[C@@H](O)[C@@H](OCc1ccccc1)C(=O)NCCO	10 µM	absorbance	0%
Cc1cccc(C)c1OCC(=O)N[C@@H](Cc1ccccc1)[C@H](O)C(=O)N1CSC(C)(C)[C@H]1C(=O)NC(C)(C)C	95.9 µM	-	0.05%
O=c1c(O[C@@H]2O[C@H](CO)[C@@H](O)[C@H](O)[C@H]2O)c(-c2ccc(O)c(O)c2)oc2cc(O)cc(O)c12	50 µg/mL	fluorescence	64.4%
O=C(NCc1cccnc1)[C@H](OCc1ccccc1)[C@H](O)[C@@H](O)[C@@H](OCc1ccccc1)C(=O)NCc1cccnc1	10 µM	absorbance	0%
CC1=CC(C)(C)Nc2ccc(OC(=O)c3cccc4ccccc34)cc21	150 µM	-	34.66%
Cc1cccc(C)c1OCC(=O)N[C@@H](Cc1ccccc1)[C@H](O)C(=O)N1CSC(C)(C)[C@H]1C(=O)NC(C)(C)c1ccccc1	0.05 µM	HPLC	72.5%
CC(C)[C@H](NC(=O)OCc1ccccn1)C(=O)NC(Cc1ccccc1)C(O)C(F)(F)C(Cc1ccccc1)NC(=O)OC(C)(C)C	0.01 µM	fluorescence	48%
CC(C)(C)NC(=O)[C@@H]1CSCN1C(=O)[C@@H](O)[C@H](Cc1ccccc1)NC(=O)CCC(=O)O	73.7 µM	-	5%
COc1ccc(NS(=O)(=O)c2ccc3c(c2)NC(=O)CC(=O)N3)c(OC)c1	150 µM	-	37.94%
Cc1c(O)cccc1C(=O)N[C@@H](Cc1ccccc1)[C@H](O)C(=O)N1CSC(C)(C)[C@H]1C(=O)NCc1cccnc1	0.05 µM	HPLC	62.6%
Cc1c(F)cccc1NS(=O)(=O)c1ccc2c(c1)CCC(=O)N2	150 µM	-	28.04%
CC(C)[C@H](NC(=O)[C@H](OCc1ccccc1)[C@H](O)[C@@H](O)[C@@H](OCc1ccccc1)C(=O)N[C@H](C(=O)OCc1ccccc1)C(C)C)C(=O)OCc1ccccc1	10 µM	absorbance	0%
Cc1cccc(C)c1OCC(=O)N[C@@H](Cc1ccccc1)[C@H](O)C(=O)N1CSC(C)(C)[C@H]1C(=O)NCc1cccc(C(N)=O)c1	0.05 µM	HPLC	67.7%

For reference, 5 entries again:

Cc1c(O)cccc1C(=O)N[C@@H](Cc1ccccc1)[C@H](O)C(=O)N1CSC(C)(C)[C@H]1C(=O)NC1C2CC3CC(C2)CC1C3 ; dose: 0.05 µM ; method: HPLC ; value: 5.5%
O=C(NCCO)[C@H](OCc1ccccc1)[C@H](O)[C@@H](O)[C@@H](OCc1ccccc1)C(=O)NCCO ; dose: 10 µM ; method: absorbance ; value: 0%
COc1ccc(C2Oc3cc(O)cc(O)c3C(=O)C2O)cc1O ; dose: 50 µg/mL ; method: fluorescence ; value: 45.6%
CC[C@H](C)/C=C(C)/C=C/C(=O)Cc1cc(O)c(C)c(O)c1C=O ; dose: 100 µg/mL ; value: 0%
CC(C)[C@H](NC(=O)N(C)Cc1ccccn1)C(=O)N[C@@H](Cc1ccccc1)[C@H](O)[C@@H](O)[C@H](Cc1ccccc1)NC(=O)[C@@H](NC(=O)N(C)Cc1ccccn1)C(C)C ; dose: 0.001 µM ; method: fluorescence ; value: 68%